The values below come from article PMC10778704 (International Journal of Molecular Sciences, 2023).

HELM strings list residues between dots; [ac] is acetyl, [am] amide, other brackets name non-standard units.

The first series can be described thus: general procedure: Fmoc solid-phase peptide synthesis; TentaGel S RAM resin, 0.23 mmol/g; DIC / Oxyma Pure. Conditions: whole synthesis, UPLC-MS, scale of the general procedure 0.1 mmol.
On to “PEPTIDE1{[ac].D.K.[S5-Z].N.H.E.[S5-half].E.D.[am]}$PEPTIDE1,PEPTIDE1,4:R3-8:R3$$$V2.0”, for which the “final LC-MS purity” value was determined as 100%.
Take “PEPTIDE1{[ac].D.K.F.N.H.E.A.E.D.[am]}$$$$V2.0”: the “final LC-MS purity” value turned out to be 99%.
With “Ac-NH-Asp-Lys-[S5-Asn-His-Glu-S5]-Glu-Asp-CO-NH2”, the “final LC-MS purity” value stood at 100%.
As for “PEPTIDE1{[ac].H.E.K.E.D.L.D.Y.Q.[am]}$PEPTIDE1,PEPTIDE1,4:R3-8:R3$$$V2.0”, the “final LC-MS purity” value is 100%.
On the same count and under the same terms, the figure for “PEPTIDE1{[ac].H.E.A.E.D.L.F.Y.Q.[am]}$$$$V2.0” is 100%; for “PEPTIDE1{[ac].D.K.K.N.H.E.D.E.D.[am]}$PEPTIDE1,PEPTIDE1,4:R3-8:R3$$$V2.0” it is 100%.
As for “PEPTIDE1{[ac].H.E.[S5-E].E.D.L.[S5-half].Y.Q.[am]}$PEPTIDE1,PEPTIDE1,4:R3-8:R3$$$V2.0”, the “final LC-MS purity” value is 96%.

The series is the same for the next values; noted with them: whole synthesis, UPLC-MS, scale of the general procedure 0.1 mmol, bicyclic.
Take “Ac-NH-Asp-Lys-[Lys-Asn-His-Glu-Asp]-Glu-Asp-[Lys-Phe-Tyr-Gln-Asp]-CO-NH2”: the “final LC-MS purity” value is recorded as 95%.

Staying with this series, now noted: whole synthesis, UPLC-MS, scale of the general procedure 0.1 mmol, cyclic.
Turning to “Ac-NH-Asp-Lys-[Lys-Asn-His-Glu-dPra]-Glu-Asp-CO-NH2”, the “final LC-MS purity” value is recorded as 100%.
Take “Ac-NH-Asp-Lys-[Dap-Asn-His-Glu-Dap]-Glu-Asp-CO-NH2”: the “final LC-MS purity” value is 100%.
On the same count and under the same terms, with “Ac-NH-Asp-Lys-[dPra-Asn-His-Glu-Lys]-Glu-Asp-CO-NH2” the figure was 98%.
Still for that read-out and setting: with “Ac-NH-His-Glu-[Lys-Glu-Asp-Leu-dPra]-Tyr-Gln-CO-NH2” the figure was 95%.
As to “Ac-NH-His-Glu-[Dap-Glu-Asp-Leu-Dap]-Tyr-Gln-CO-NH2”, the “final LC-MS purity” value amounted to 98%.
Still for that read-out and setting: the figure for “Ac-NH-His-Glu-[dPra-Glu-Asp-Leu-Lys]-Tyr-Gln-CO-NH2” is 100%.

Still in this series, the particulars now being: whole synthesis, UPLC-MS, scale of the general procedure 0.1 mmol, side-chain lactam ring.
For “Ac-NH-Asp-Lys-[Lys-Asn-His-Glu-Glu]-Glu-Asp-CO-NH2”, the “final LC-MS purity” value amounted to 100%.
Take “Ac-NH-Pro-His-Glu-[Lys-Glu-Asp-Leu-Asp]-Tyr-Gln-CO-NH2”: the “final LC-MS purity” value was found to be 100%.
“Ac-NH-His-Glu-[Asp-Glu-Asp-Leu-Lys]-Tyr-Gln-CO-NH2”: the “final LC-MS purity” value was 98%.
For the substance “Ac-NH-Pro-Asp-Lys-[Lys-Asn-His-Glu-Asp]-Glu-Asp-CO-NH2”, the “final LC-MS purity” value is listed as 100%.
As to “Ac-NH-His-Glu-[Lys-Glu-Asp-Leu-Glu]-Tyr-Gln-CO-NH2”, the “final LC-MS purity” value is listed as 100%.
Still for that read-out and setting: the figure for “Ac-NH-Asp-Lys-[Asp-Asn-His-Glu-Lys]-Glu-Asp-CO-NH2” is 95%.
